Assay results taken from patent US8791074.

Molecular target: wild type anthrax toxin protective antigen (WT-PA) (UniProt P13423)

tissue-type plasminogen activator (tPA)
in vitro cleavage, Western blot with anti-PA: PA was completely resistant to tPA
